Results of unrelated studies side by side (data: NIAID ChemDB).

Shared fields: cytotoxicity tests; cells: MT-4; endpoint: CC50

An empty or dashed field is not shown. Conditions beyond the fields shown may differ between rows. CCn is the concentration with n% toxicity to the cells.

{"compound": "Cc1ncn(Nc2ccccc2)c1-c1ccccc1", "result": "52.18 µM"}
{"compound": "Cc1nc(CCCCCCC(=O)c2ccccc2)n2nc(NCCCCCCN)ccc12", "result": ">10 µM"}
{"compound": "CSc1nsc(-c2ccc(OCc3ccccc3)cc2)c1C#N", "read by": "MTT", "result": ">125 µg/mL"}
{"compound": "CCCN1C(=O)N(CCC)N(C(=O)C(C)(C)C)C[C@@H](O)[C@H]1Cc1ccccc1", "result": "63 µM"}
{"compound": "CC(CC(F)(F)C(F)(F)C(F)(F)F)(C(=O)OCCOP(=O)([O-])O)C(F)(F)C(F)(F)C(F)(F)F.[NH3+]CCO", "result": ">100 µg/mL"}
{"compound": "CCOC(=O)c1cccn1S(=O)(=O)c1ccc(NC(N)=O)cc1", "result": "128.8 µM"}
{"compound": "CCOC(=O)Sc1nsc(-c2ccccc2)c1C#N", "read by": "MTT", "result": "108 µg/mL"}
{"compound": "Nc1c(S(=O)(=O)O)cc2cc(S(=O)(=O)O)cc(O)c2c1O", "result": "46 µM"}
{"compound": "Cc1cc(C#N)cc(C)c1Oc1nc(Nc2ccc(C#N)cc2)nc(N)c1Br", "read by": "MTT", "result": "27 µM"}
{"compound": "CC1=C(C(=O)Nc2ccc(F)c(F)c2)C2=NN=C(N)C2C(=O)N1", "read by": "MTT", "result": "97.1 µg/mL"}
{"compound": "Nc1ccn([C@@H]2OC[C@@H](CO)[C@H]2O)c(=O)n1", "read by": "MTT", "result": ">100 µM"}
{"compound": "COC(=O)[C@H](Cc1ccccc1)NP(=O)(OC[C@H]1C=C[C@@H](n2ccc3c(N)ncnc32)C1)Oc1ccccc1", "read by": "MTS", "result": "31.5 µM"}
{"compound": "Cc1cc(C)cc(Oc2c(C(C)C)c(=O)[nH]c(=O)n2Cc2cc(C(F)(F)F)cc(C(F)(F)F)c2)c1", "read by": "MTT", "result": ">100 µg/mL"}
{"compound": "CC(C)CC(=O)N1C[C@@H](O)[C@@H](Cc2ccccc2)N(Cc2cccc(N)c2)C(=O)N1Cc1cccc(N)c1", "result": "59.5 µM"}
{"compound": "CCc1c(Oc2cc(C)cc(C)c2)n(Cc2ccc(OC(F)(F)F)cc2)c(=O)[nH]c1=O", "read by": "MTT", "result": ">100 µg/mL"}
{"compound": "CC(=O)Nc1cnc(Oc2c(Cl)cc(Cl)cc2Cl)nc1Nc1ccc(C#N)cc1", "read by": "MTT", "result": "33 µM"}
{"compound": "CSc1nsc(-c2ccccc2)c1C#N", "read by": "MTT", "result": ">125 µg/mL"}
{"compound": "Cc1cc(C)cc(Sc2c(C(C)C)c(=O)[nH]c(=O)n2Cc2ccc3c(c2)C(=O)c2ccccc2C3=O)c1", "read by": "MTT", "result": ">100 µg/mL"}
{"compound": "C[C@]1(CO)O[C@@H](n2ccc(=O)[nH]c2=O)[C@H](O)[C@@H]1O", "result": ">100 µM"}
{"compound": "CCc1c(Oc2cc(C)cc(C)c2)n(CC2CC2)c(=O)[nH]c1=O", "read by": "MTT", "result": ">100 µg/mL"}
{"compound": "CC1=C(C(=O)Nc2cc(C)ccc2C)C2=NN=C(N)C2C(=O)N1", "read by": "MTT", "result": "45.6 µg/mL"}
{"compound": "Cc1nc(CCCCCCC(=O)c2ccccc2)n2nc(NCCCCCCNCc3cn([C@H]4C=C[C@@H](CO)O4)c(=O)[nH]c3=O)ccc12", "result": "29 µM"}
{"compound": "Cc1cc(Br)cc(C)c1Oc1ncc([N+](=O)[O-])c(Nc2ccc(C#N)cc2)n1", "read by": "MTT", "result": "≥202 µM"}
{"compound": "Cc1nc(CCCCCCC(=O)c2ccccc2)n2nc(NCCCCCCCCCCN)ccc12", "result": ">10 µM"}
{"compound": "Cc1cn([C@H]2OC(C)(CO)[C@H](O)[C@@H]2O)c(=O)[nH]c1=O", "result": ">100 µM"}
{"compound": "CC1=C(C(=O)Nc2ccccc2C)C2=NN=C(N)C2C(=O)N1", "read by": "MTT", "result": "96.1 µg/mL"}
{"compound": "Cc1ccnc2c1NC(=O)c1cccnc1N2C1CC1", "read by": "MTT", "result": "19.65 µg/mL"}
{"compound": "O=C(CCCCCCCCCCC(=O)Nc1cc(S(=O)(=O)O)c2cccc(S(=O)(=O)O)c2c1)Nc1cc(S(=O)(=O)O)c2cccc(S(=O)(=O)O)c2c1", "result": "383 µM"}
{"compound": "Cc1[nH]c(=S)n(Nc2cccc(Cl)c2)c1C(=O)O", "result": "266 µM"}
{"compound": "N#Cc1c(-c2ccccc2)s[nH]c1=S", "read by": "MTT", "result": "34.2 µg/mL"}
{"compound": "Cc1nc(CCCCCCC(=O)c2ccccc2)n2nc(NCCCCCCCCN)ccc12", "result": ">10 µM"}
{"compound": "CCOC(=O)c1cccn1S(=O)(=O)c1cc(Cl)ccc1NC(=O)c1ccc(C)cc1", "result": ">200 µM"}
{"compound": "Cc1cccc(Nn2c(-c3ccccc3)c(C)[nH]c2=S)c1", "result": "88.25 µM"}
{"compound": "CC(CC(F)(OC(F)(F)C(F)(F)C(F)(F)F)C(F)(F)F)(C(=O)OCCOP(=O)([O-])O)C(F)(OC(F)(F)C(F)(F)C(F)(F)F)C(F)(F)F.[NH3+]CCO", "result": ">100 µg/mL"}
{"compound": "O=C(CCCO)N1C[C@@H](O)[C@@H](Cc2ccccc2)N(Cc2ccc(O)cc2)C(=O)N1Cc1ccc(O)cc1", "result": ">100 µM"}
{"compound": "S=C(NCCc1cccc(Oc2ccccc2)c1)Nc1nccs1", "result": "14 µM"}
{"compound": "CCc1c(Oc2cc(C)cc(C)c2)n(Cc2cc(C(F)(F)F)cc(C(F)(F)F)c2)c(=O)[nH]c1=O", "read by": "MTT", "result": ">100 µg/mL"}
{"compound": "CC(=O)Nc1cnc(Oc2c(C)cc(C)cc2C)nc1Nc1ccc(C#N)cc1", "read by": "MTT", "result": ">322 µM"}
{"compound": "Cn1cccc1CCNC(=S)Nc1nccs1", "result": "143 µM"}
{"compound": "C=C(CC[C@](C)(O)[C@H]1C(=O)C[C@H]2[C@@H]3C(=O)C=C4[C@@H](O)[C@@H](O)CC[C@]4(C)[C@H]3CC[C@@]21C)C(C)C", "read by": "MTT", "result": "18.55 µM"}
{"compound": "Cc1nc(CCCCCCC(=O)c2ccccc2)n2nc(NCCCCCCCCCCCCNCc3cn([C@H]4C=C[C@@H](CO)O4)c(=O)[nH]c3=O)ccc12", "result": "33 µM"}
{"compound": "CCOS(=O)c1nsc(-c2ccc(OCc3ccccc3)cc2)c1C#N", "read by": "MTT", "result": ">125 µg/mL"}
{"compound": "Fc1cccc(CCNC(=S)Nc2nccs2)c1", "result": "78 µM"}
{"compound": "CCc1[nH]c(=S)n(Nc2cccc(C)c2)c1-c1ccccc1", "result": "53.55 µM"}
{"compound": "Cc1ccc(NC(=S)NCCc2c(F)cccc2F)nc1", "result": ">325 µM"}
{"compound": "CC(=O)Nc1cnc(Oc2c(C)cc(C=O)cc2C)nc1Nc1ccc(C#N)cc1", "read by": "MTT", "result": "236 µM"}
{"compound": "CCOC(=O)c1cccn1S(=O)(=O)c1cc(Cl)ccc1NC(C)=O", "result": ">200 µM"}
{"compound": "Cc1cc(C)cc(Sc2c(C(C)C)c(=O)[nH]c(=O)n2Cc2cc(C(F)(F)F)cc(C(F)(F)F)c2)c1", "read by": "MTT", "result": ">100 µg/mL"}
{"compound": "Cc1ccnc2c1NC(=O)c1cccnc1N2C1CC1", "read by": "MTT", "result": ">25 µM"}
{"compound": "CC(CC(F)(F)C(F)(F)C(F)(F)F)(C(=O)OCCOP(=O)(O)O)C(F)(F)C(F)(F)C(F)(F)F", "result": ">100 µg/mL"}
{"compound": "CCOC(=O)c1cccn1S(=O)(=O)c1cc(Cl)ccc1NC(=O)CC(C)C", "result": ">200 µM"}
{"compound": "CC(C)c1csc(NC(=S)NCCc2ccccc2)n1", "result": ">330 µM"}
{"compound": "C[C@]1(CO)O[C@@H](n2cc(F)c(=O)[nH]c2=O)[C@H](O)[C@@H]1O", "result": ">100 µM"}
{"compound": "CCOCc1cn([C@H]2C=C[C@@H](CO)O2)c(=O)[nH]c1=O", "result": "59 µM"}
{"compound": "CCCc1csc(NC(=S)NCCc2ccccc2)n1", "result": ">330 µM"}
{"compound": "COC(=O)C(C)(C)NP(=O)(OC[C@H]1C=C[C@@H](n2ccc3c(N)ncnc32)C1)Oc1ccccc1", "read by": "MTS", "result": ">10 µM"}
{"compound": "CCCCCCOc1cccc(CCNC(=S)Nc2nccs2)c1", "result": "8 µM"}
{"compound": "C=C(CC[C@](C)(O)[C@H]1C(=O)C[C@H]2[C@@H]3C(=O)C[C@H]4C[C@H](O)CC[C@]4(C)[C@H]3CC[C@@]21C)C(C)C", "read by": "MTT", "result": ">25 µM"}
{"compound": "C[C@H](NP(=O)(OC[C@H]1C=C[C@@H](n2ccc3c(N)ncnc32)C1)Oc1ccccc1)C(=O)OCc1ccccc1", "read by": "MTS", "result": ">10 µM"}
{"compound": "Cc1ccc(Nn2c(-c3ccccc3)c(C)[nH]c2=S)cc1Cl", "result": "44.29 µM"}
{"compound": "CC1=C(C(=O)Nc2ccccc2F)C2=NN=C(N)C2C(=O)N1", "read by": "MTT", "result": "98.9 µg/mL"}
{"compound": "COC(=O)[C@H](C)NP(=O)(OC[C@@H]1CC[C@H](n2ccc3c(N)ncnc32)C1)Oc1ccccc1", "read by": "MTS", "result": ">25 µM"}
{"compound": "Cc1cn([C@H]2C[C@H](N=[N+]=[N-])[C@@H](CO)O2)c(=O)[nH]c1=O", "read by": "MTT", "result": "7.6 µg/mL"}
{"compound": "Cc1[nH]c(=S)n(Nc2cccc(Cl)c2)c1C", "result": "259 µM"}
{"compound": "O=C(CCCCCCCCCCC(=O)Nc1cc(S(=O)(=O)O)cc2cc(S(=O)(=O)O)cc(O)c12)Nc1cc(S(=O)(=O)O)cc2cc(S(=O)(=O)O)cc(O)c12", "result": "465 µM"}
{"compound": "O=C(c1ccco1)N1C[C@@H](O)[C@@H](Cc2ccccc2)N(Cc2ccc(O)cc2)C(=O)N1Cc1ccc(O)cc1", "result": "17.3 µM"}
{"compound": "COc1cccc2c(C#N)c3ccccc3c(NC(=S)N[C@H]3C[C@H](n4cc(C)c(=O)[nH]c4=O)O[C@@H]3CO)c12", "result": "52.5 µg/mL"}

Again, the opening 9 rows:

compound,read by,result
Cc1ncn(Nc2ccccc2)c1-c1ccccc1,,52.18 µM
Cc1nc(CCCCCCC(=O)c2ccccc2)n2nc(NCCCCCCN)ccc12,,>10 µM
CSc1nsc(-c2ccc(OCc3ccccc3)cc2)c1C#N,MTT,>125 µg/mL
CCCN1C(=O)N(CCC)N(C(=O)C(C)(C)C)C[C@@H](O)[C@H]1Cc1ccccc1,,63 µM
CC(CC(F)(F)C(F)(F)C(F)(F)F)(C(=O)OCCOP(=O)([O-])O)C(F)(F)C(F)(F)C(F)(F)F.[NH3+]CCO,,>100 µg/mL
CCOC(=O)c1cccn1S(=O)(=O)c1ccc(NC(N)=O)cc1,,128.8 µM
CCOC(=O)Sc1nsc(-c2ccccc2)c1C#N,MTT,108 µg/mL
Nc1c(S(=O)(=O)O)cc2cc(S(=O)(=O)O)cc(O)c2c1O,,46 µM
Cc1cc(C#N)cc(C)c1Oc1nc(Nc2ccc(C#N)cc2)nc(N)c1Br,MTT,27 µM